Measured values from several laboratories, pooled; numbers as filed in NIAID ChemDB.

Shared fields: growth or infection tests; species: Mycobacterium avium complex

A number after MIC or MFC names an inhibition level or a share of isolates. Blank or dashed fields: not listed here. Neighbouring rows are from separate reports.

SMILES | strain or isolate | read by | read-out | value
NCC[C@H](O)C(=O)N[C@@H]1C[C@H](N)[C@@H](O[C@H]2O[C@H](CN)[C@@H](O)[C@H](O)[C@H]2O)[C@H](O)[C@H]1O[C@H]1O[C@H](CO)[C@@H](O)[C@H](N)[C@H]1O | SK32/HIV+ | - | MIC | 8 µg/mL
CC[C@@H](CO)NCCN[C@@H](CC)CO | 3350 | - | MBC | 30 µg/mL
CCN(CC)CC1CCN(c2c(F)cc3c(=O)c(C(=O)O)cn(C4CC4)c3c2F)C1 | - | - | MIC50 | 2 µg/mL
CCn1cc(C(=O)O)c(=O)c2cc(F)c(N3CCN(C)CC3)cc21 | Isolate 861589 | - | MIC | 20 µg/mL
NC(=O)c1cnccn1 | 20 strains | - | MIC50 | >1600 µg/mL
CO[C@H]1/C=C/O[C@@]2(C)Oc3c(C)c(O)c4c(O)c(c5c(c4c3C2=O)NC2(CCN(CC(C)C)CC2)N=5)=NC(=O)/C(C)=C\C=C\[C@H](C)[C@H](O)[C@@H](C)[C@@H](O)[C@@H](C)[C@H](OC(C)=O)[C@@H]1C | N-276 | - | MIC | 0.05 µg/mL
C[C@@H]1CN(c2c(F)c(N)c3c(=O)c(C(=O)O)cn(C4CC4)c3c2F)C[C@H](C)N1 | 22 | broth dilution | MIC | 0.12 µg/mL
CC[C@H]1OC(=O)[C@H](C)[C@@H](O[C@H]2C[C@@](C)(OC)[C@@H](O)[C@H](C)O2)[C@H](C)[C@@H](O[C@@H]2O[C@H](C)C[C@H](N(C)C)[C@H]2O)[C@](C)(O)C[C@@H](C)CN(C)[C@H](C)[C@@H](O)[C@]1(C)O | 20 strains | - | MIC50 | 32 µg/mL
CC[C@@H](CO)NCCN[C@@H](CC)CO | 13034 (serotype 18) | - | MIC | 3.2 µg/mL
NC[C@H]1O[C@H](O[C@H]2[C@H](O[C@@H]3O[C@H](CO)[C@@H](O)[C@H]3O)[C@@H](O)[C@H](N)C[C@@H]2N)[C@H](N)[C@@H](O)[C@@H]1O | TMC 1403 | - | MIC | 0.1 µg/mL
c1ccc(CSc2nc3ccccc3[nH]2)cc1 | MY330/88 | - | MIC | >125 µM
CC[C@H]1OC(=O)[C@H](C)[C@@H](O[C@H]2C[C@@](C)(OC)[C@@H](O)[C@H](C)O2)[C@H](C)[C@@H](O[C@@H]2O[C@H](C)C[C@H](N(C)C)[C@H]2O)[C@](C)(OC)C[C@@H](C)C(=O)[C@H](C)[C@@H](O)[C@]1(C)O | - | - | MIC50 | <0.2 µg/mL
NCC[C@H](O)C(=O)N[C@@H]1C[C@H](N)[C@@H](O[C@H]2O[C@H](CN)[C@@H](O)[C@H](O)[C@H]2O)[C@H](O)[C@H]1O[C@H]1O[C@H](CO)[C@@H](O)[C@H](N)[C@H]1O | 827/HIV+ | - | MIC | 4 µg/mL
CN[C@@H]1[C@@H](O)[C@@H](O[C@@H]2[C@@H](O)[C@H](O[C@H]3O[C@H](CN)CC[C@H]3N)[C@@H](N)C[C@H]2N)OC[C@]1(C)O | TMC 1467 | - | MIC | 0.01 µg/mL
NC1CCN(c2c(F)cc3c(=O)c(C(=O)O)cn(C4CC4)c3c2F)C1 | - | - | MIC50 | 8 µg/mL
CCSc1nc2ccccc2[nH]1 | MY330/88 | - | MIC | 1000 µM
CC[C@@H](CO)NCCN[C@@H](CC)CO | 1124 | - | MIC | 8 µg/mL
NC1CN(c2cc3c(cc2F)c(=O)c(C(=O)O)cn3C2CC2)CC1C1CC1 | - | - | MIC50 | 8 µg/mL
CO[C@H]1/C=C/O[C@@]2(C)Oc3c(C)c(O)c4c(O)c(c5c(c4c3C2=O)NC2(CCN(CC(C)C)CC2)N=5)=NC(=O)/C(C)=C\C=C\[C@H](C)[C@H](O)[C@@H](C)[C@@H](O)[C@@H](C)[C@H](OC(C)=O)[C@@H]1C | 26 isolates (HIV+) | - | MIC50 | 0.25 µg/mL
O=C(O)c1cn(C2CC2)c2c(F)c(N3CCNCC3)c(F)cc2c1=O | - | - | MIC50 | 1 µg/mL
NC[C@H]1O[C@H](O[C@H]2[C@H](O)[C@@H](O[C@H]3O[C@H](CO)[C@@H](O)[C@H](N)[C@H]3O)[C@H](N)C[C@@H]2N)[C@H](O)[C@@H](O)[C@@H]1O | Isolate C-21 | - | MIC | 200 µg/mL
NC[C@H]1O[C@H](O[C@H]2[C@H](O)[C@@H](O[C@H]3O[C@H](CO)[C@@H](O)[C@H](N)[C@H]3O)[C@H](N)C[C@@H]2N)[C@H](O)[C@@H](O)[C@@H]1O | N-979 (HIV+) | - | MIC | 4 µg/mL
CO[C@H]1/C=C/O[C@@]2(C)Oc3c(C)c(O)c4c(O)c(c(/C=N/N5CCN(C)CC5)c(O)c4c3C2=O)NC(=O)/C(C)=C\C=C\[C@H](C)[C@H](O)[C@@H](C)[C@@H](O)[C@@H](C)[C@H](OC(C)=O)[C@@H]1C | 13011 (serotype 16) | - | MIC | 0.8 µg/mL
O=[N+]([O-])c1ccc(CSc2nc3ccccc3[nH]2)cc1 | MY330/88 | - | MIC | 8 µM
CC(C)N=c1cc2n(-c3ccc(Cl)cc3)c3ccccc3nc-2cc1Nc1ccc(Cl)cc1 | 20 strains | - | MIC50 | <0.125 µg/mL
CCn1cc(C(=O)O)c(=O)c2cc(F)c(N3CCNCC3)cc21 | CIPT 140310030 | - | MIC | 20 µg/mL
CCCCCCCCCCCCCCCCSc1nc2ccccc2[nH]1 | MY330/88 | - | MIC | >500 µM
NC[C@H]1O[C@H](O[C@H]2[C@H](O)[C@@H](O[C@H]3O[C@H](CO)[C@@H](O)[C@H](N)[C@H]3O)[C@H](N)C[C@@H]2N)[C@H](O)[C@@H](O)[C@@H]1O | - | - | MIC | <3 µg/mL
CC[C@@H](CO)NCCN[C@@H](CC)CO | 3350-4 | - | MBC | 30 µg/mL
CO[C@H]1/C=C/O[C@@]2(C)Oc3c(C)c(O)c4c(O)c(c(/C=N/N5CCN(C)CC5)c(O)c4c3C2=O)NC(=O)/C(C)=C\C=C\[C@H](C)[C@H](O)[C@@H](C)[C@@H](O)[C@@H](C)[C@H](OC(C)=O)[C@@H]1C | - | - | MIC | >2.6 µg/mL
O=[N+]([O-])c1ccc(CSc2nc3ccccc3[nH]2)c([N+](=O)[O-])c1 | MY330/88 | - | MIC | 16 µM
CO[C@H]1/C=C/O[C@@]2(C)Oc3c(C)c(O)c4c(O)c(c(/C=N/N5CCN(C)CC5)c(O)c4c3C2=O)NC(=O)/C(C)=C\C=C\[C@H](C)[C@H](O)[C@@H](C)[C@@H](O)[C@@H](C)[C@H](OC(C)=O)[C@@H]1C | 969/HIV- | - | MIC | 8 µg/mL
NC[C@H]1O[C@H](O[C@H]2[C@H](O)[C@@H](O[C@H]3O[C@H](CO)[C@@H](O)[C@H](N)[C@H]3O)[C@H](N)C[C@@H]2N)[C@H](O)[C@@H](O)[C@@H]1O | Isolate 64 | - | MIC | 6.25 µg/mL
CO[C@H]1/C=C/O[C@@]2(C)Oc3c(C)c(O)c4c(O)c(c(/C=N/N5CCN(C6CCCC6)CC5)c(O)c4c3C2=O)NC(=O)/C(C)=C\C=C\[C@H](C)[C@H](O)[C@@H](C)[C@@H](O)[C@@H](C)[C@H](OC(C)=O)[C@@H]1C | Serotype 6 | - | MIC | 2.5 µg/mL
CCn1cc(C(=O)O)c(=O)c2cc(F)c(N3CCNCC3)cc21 | - | - | MIC50 | 16 µg/mL
CN[C@@H]1[C@H](O[C@H]2[C@H](O[C@H]3[C@H](O)[C@@H](O)[C@H](N=C(N)N)[C@@H](O)[C@@H]3N=C(N)N)O[C@@H](C)[C@]2(O)C=O)O[C@@H](CO)[C@H](O)[C@H]1O | Isolate 93 | - | MIC | 100 µg/mL
NNC(=O)c1ccncc1 | 20 strains | - | MIC90 | >1.6 µg/mL
CO[C@H]1/C=C/O[C@@]2(C)Oc3c(C)c(O)c4c(O)c(c(/C=N/N5CCN(C/C=C/c6ccccc6)CC5)c(O)c4c3C2=O)NC(=O)/C(C)=C\C=C\[C@H](C)[C@H](O)[C@@H](C)[C@@H](O)[C@@H](C)[C@H](OC(C)=O)[C@@H]1C | 5718 | - | MBC | 2 µg/mL
Clc1ccc(CSc2nc3ccccc3[nH]2)cc1Cl | MY330/88 | - | MIC | >32 µM
NCC[C@H](O)C(=O)N[C@@H]1C[C@H](N)[C@@H](O[C@H]2O[C@H](CN)[C@@H](O)[C@H](O)[C@H]2O)[C@H](O)[C@H]1O[C@H]1O[C@H](CO)[C@@H](O)[C@H](N)[C@H]1O | 1008 | - | MIC | 2.5 µg/mL
NC[C@@H]1O[C@H](O[C@H]2[C@@H](O)[C@H](O[C@@H]3[C@@H](O)[C@H](N)C[C@H](N)[C@H]3O[C@H]3O[C@H](CO)[C@@H](O)C[C@H]3N)O[C@@H]2CO)[C@H](N)[C@@H](O)[C@@H]1O[C@H]1O[C@H](CO)[C@@H](O)[C@H](O)[C@@H]1O | TMC 1403 | - | MIC | 0.39 µg/mL
CC(N)C1CCN(c2nc3c(cc2F)c(=O)c(C(=O)O)cn3C2CC2)C1 | - | - | MIC90 | 32 µg/mL
NC[C@@H]1O[C@H](O[C@H]2[C@@H](O)[C@H](O[C@@H]3[C@@H](O)[C@H](N)C[C@H](N)[C@H]3O[C@H]3O[C@H](CO)[C@@H](O)[C@H](O)[C@H]3N)O[C@@H]2CO)[C@H](N)[C@@H](O)[C@@H]1O | 536/HIV+ | - | MIC | 1.56 µg/mL
CC1CN(c2c(F)cc3c(=O)c(C(=O)O)cn(C4CC4)c3c2F)CC(C)N1 | - | - | MIC50 | 1 µg/mL
CC1COc2c(N3CCN(C)CC3)c(F)cc3c(=O)c(C(=O)O)cn1c23 | 101 isolates | - | MIC50 | 8 µg/mL

Again, the opening 4 rows:

{"SMILES": "NCC[C@H](O)C(=O)N[C@@H]1C[C@H](N)[C@@H](O[C@H]2O[C@H](CN)[C@@H](O)[C@H](O)[C@H]2O)[C@H](O)[C@H]1O[C@H]1O[C@H](CO)[C@@H](O)[C@H](N)[C@H]1O", "strain or isolate": "SK32/HIV+", "read-out": "MIC", "value": "8 µg/mL"}
{"SMILES": "CC[C@@H](CO)NCCN[C@@H](CC)CO", "strain or isolate": "3350", "read-out": "MBC", "value": "30 µg/mL"}
{"SMILES": "CCN(CC)CC1CCN(c2c(F)cc3c(=O)c(C(=O)O)cn(C4CC4)c3c2F)C1", "read-out": "MIC50", "value": "2 µg/mL"}
{"SMILES": "CCn1cc(C(=O)O)c(=O)c2cc(F)c(N3CCN(C)CC3)cc21", "strain or isolate": "Isolate 861589", "read-out": "MIC", "value": "20 µg/mL"}